PubChem BioAssay AID624099 | ICCB-Longwood | 2012
Test: 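Knock-downs relieving repression by E2 of an HPV18 LCR luciferase reporter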 (primary screen). System: human C33A cervical carcinoma cells (HPV-negative) stably expressing BPV1 E2 and an HPV18 LCR luciferase reporter. Reagent: siRNA pool against human genes, 40 nM. Time to read-out: 72 h. Measurement: 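HPV18 LCR reporter light per well, converted to plate-wise z-scores that exclude control wells, and averaged over triplicate plates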. Scale: mean z-score and z-score: higher = stronger reporter signal, weaker E2 silencing. Rule for the call: 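Hit if mean z-score reaches 2 and two or more of three replicate z-scores also reach 2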.
Shown is a random part of about 21,000 reagents. 497 of all reagents (2.4%) count as active. 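Higher z means weaker E2 silencing; only reporter increases were scored, and knock-downs that hurt cell survival may mask genuine repressor factors.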

Target gene | mean z-score | z-score, replicate A | z-score, replicate B | z-score, replicate C | Call
TWNK (twinkle mtDNA helicase) | -1.09 | -1.18 | -1.31 | -0.78 | inactive
AMER3 (APC membrane recruitment protein 3) | -0.11 | 0 | -0.17 | -0.16 | inactive
TMCC3 (transmembrane and coiled-coil domain family 3) | 1.81 | 1.32 | 2.09 | 2.01 | inactive
LOC284898 | 0.53 | 0.35 | 0.33 | 0.92 | inactive
RTF1 (RTF1 homolog, Paf1/RNA polymerase II complex component) | 1.13 | 0.73 | 1.15 | 1.51 | inactive
AQP12A (aquaporin 12A) | -0.26 | -0.25 | -0.16 | -0.37 | inactive
FAM230B (family with sequence similarity 230 member B) | 0.12 | 0.26 | 0.02 | 0.07 | inactive
ZNF10 (zinc finger protein 10) | -0.88 | -0.57 | -0.84 | -1.24 | inactive
DUSP28 (dual specificity phosphatase 28) | 2.36 | 2.18 | 2.42 | 2.48 | active

Continued; the last 3 above are carried over.
Target gene | mean z-score | z-score, replicate A | z-score, replicate B | z-score, replicate C | Call
FAM230B (family with sequence similarity 230 member B) | 0.12 | 0.26 | 0.02 | 0.07 | inactive
ZNF10 (zinc finger protein 10) | -0.88 | -0.57 | -0.84 | -1.24 | inactive
DUSP28 (dual specificity phosphatase 28) | 2.36 | 2.18 | 2.42 | 2.48 | active
NCR3 (natural cytotoxicity triggering receptor 3) | 0.1 | -0.18 | 0.33 | 0.14 | inactive
OR52I2 (olfactory receptor family 52 subfamily I member 2) | 1.27 | 1.07 | 1.57 | 1.17 | inactive
C5orf47 (chromosome 5 open reading frame 47) | 0.46 | 1.11 | 0.06 | 0.21 | inactive
GNS (glucosamine (N-acetyl)-6-sulfatase) | 0.09 | -0.02 | -0.13 | 0.42 | inactive
LSMEM1 (leucine rich single-pass membrane protein 1) | -0.16 | -0.18 | -0.34 | 0.03 | inactive
IPCEF1 (interaction protein for cytohesin exchange factors 1) | -0.83 | -0.98 | -0.69 | -0.81 | inactive
NDUFB8 (NADH:ubiquinone oxidoreductase subunit B8) | -0.86 | -0.86 | -0.97 | -0.75 | inactive
PLEKHM2 (pleckstrin homology and RUN domain containing M2) | 1.12 | 1.43 | 0.55 | 1.37 | inactive
GTF2H4 (general transcription factor IIH subunit 4) | -0.43 | -0.38 | -0.38 | -0.52 | inactive
RBPMS2 (RNA binding protein, mRNA processing factor 2) | -0.41 | -0.34 | -0.43 | -0.46 | inactive
MAP3K19 (mitogen-activated protein kinase kinase kinase 19) | 0.76 | 1.07 | 0.7 | 0.51 | inactive
ERCC2 (ERCC excision repair 2, TFIIH core complex helicase subunit) | 0.2 | 0.18 | 0.15 | 0.26 | inactive
TMEM200B (transmembrane protein 200B) | 0.34 | 0.49 | -0.1 | 0.64 | inactive
LY9 (lymphocyte antigen 9) | 1.37 | 1.29 | 1.31 | 1.52 | inactive
